From the supplement of paper PMC9931576 come the findings set out here.

The labels stand for the following.
B1: XGv-337 (protein)
chain 1: EVQLVESGGGLVQPGGSLRLSCAASGFPFITYWMSWVRQTPGKGLEWVANIKEDGSEKNYVDSVKGRFTISRDNAENSLYLRMNSLRTEDTAVYYCAREIRRTIPTSGMDVWGQGTTVIVSS
chain 2: SYELTQPPSVSVSPGQTARITCTGDALPKQYAYWYQQKPGQAPVLIISKDNERASGIPERISGSRSGTTVTLTISGVQAEDEAEYYCQSADSSGSYSYVFGTGTK
B2: BD57-019 (protein)
chain 1: QVQLVQSGAEVKKPGASVKVSCKASGYTFTSYGISWVRQAPGQGLEWMGWISTYNDNTNYEQEFQGRVTMTTDTSTSTAYMELRSLRSDDTAVYYCARYGLYYFDRSGYYDMSPDDAFDIWGQGTMVTVSS
chain 2: QSVLTQPPSVSGAPGQRVTISCTGSSSNIGAGYDVHWYQQLPGTAPKLLIYGNSNRPSGVPDRFSGSKSGTSASLAITGLQAEDEADYYCQSYDSSLSGVVFGGGTKLTVL
B3: XGv-422 (protein)
chain 1: QVQLVQSGAEVKKPGASVKVSCKASGYTYTSYPMHWVRQAPGQRLEWMGRINAVNGNTKYSQKFQGRVSITSDTSASTAHMELSGLRFEDTGVYYCARDQVSVAGAPNDDYFYYYGMDVWGQGTTVSVSS
chain 2: SYELTQPPSVSVSPGQTARITCSGDALPKQYAYWYQQKPGQAPVMVIYKDNERPSGIPERFSGSSSGTTIRLTISGVQPEDEADYYCQSVDSSGSYVVFGGGTKLT
B4: BD57-008 (protein)
chain 1: EVQLVESGGGLVQPGRSLRLSCAASGFTFDDYAMHWVRQAPGKGLEWVSGISWNSGDIGYAGSVKGRFTISRDNAKNSLYLQMNSLRTEDTAFYYCAKGWLGELFGGMDYWGQGTLVTVSS
chain 2: QPVLTQSSSASASLGSSVKLTCTLNSVHSSYLIAWHQQQPGKAPRYLMKLEGSGIYNKGSGVPDRFSGSSSGADRFLTISNLQSEDEADYYCETWDSNTRVFGGGTKLTVL
B5: BD57-009 (protein)
chain 1: EVQLVESGGGLIQPGGSLRLSCAASGVTVNRNYMSWVRQAPGKGLEWVSVIYPGGSTFYTDSVKGRFSISRDSSKNTLYLQMNNLRAEDTAVYYCARTLFDAFDIWGQGTMVTVSS
chain 2: DIQLTQSPSFLSASVGDRVTITCRASQGISIYLAWYQQKPGKAPRLLIYAASTLQSGVPSRFSGSGSGTEFTLTISSLQPEDFATYFCQQLNSYPPVTFGQGTRLEIK
B6: BD57-010 (protein)
chain 1: QLQLQESGPGLLKPSETLSLTCTVSGDSFGSSNFHWGWIRQPPGKGLEWVGSIYYSGSAHYNPSLKSRVTISLDTSKNQISLKLRSVTAADTAVYYCATRFWIFGLVSYFDYWGQGTLVTVSS
chain 2: DIQMTQSPSSLSASVGDRVTIPCRASQNINNYLNWYQQKPGKAPKLLIYAASSLQSGVPSRFSGSGSGTDFTLIISSLQPEDFATYYCQQTYNNVSFGGGTKVEFK
B7: XGv-404 (protein)
chain 1: EVQLVESGGGLIQPGGSLRLSCTASGITVSRNYMNWVRQAPGKGLEWVSMIYSGGSSFYADSVKGRFTISRDTSKNTLYLQMNSLRAEDTAVYYCARHSPHRPGEIWGQGTLVTVSS
chain 2: DIQMTQSPPSLSASVGDRVTITCQASQDISNYLNWYQQKPGKAPKLLIYDASNLEIGVPSRFSGSGSGTDFALTISSLQPEDIATYYCPQCDNLPCTFGGGTKVEI
B8: XGv-347 (protein)
chain 1: QMQLVQSGPEVKKPGTSVKVSCKASGFTFTDVSSLQWVRQARGQRLEWIGWTVVGTGNTNYAPRFQERVTITTDKSTSTAYMELSSLRSEDTAVYYCAAPFCSETSCSDGFDLWGQGTKVTVSS
chain 2: EIVLTQSPGTLSLSPGDRATLSCRASQSVRISYLAWYQQKPGQAPRLLISGSSSRATGIPDRFSASGSGTDFALTISRLEPEDFAVYYCQQYDNSPWTFGQGTKVEVK
B9: BD57-002 (protein)
chain 1: EVQLVESGGGLIQPGGSLRLSCVASGFSVSNNYVTWVRQAPGKGLEWVSVIYSAGSTYYADSVKGRFTISRDNSKNTLYLQMNSLSADDTAVYYCAREASRPGYNWAYYFDYWGQGTLVTVSS
chain 2: QSALTQPASVSGSPGQSITISCTGTTSDVGGYNFVSWYQHHPGKAPKVMIYDVSERPSGVSNRFSGSKSGNTASLTISGLQADDEADYYCASYTSSSTFVFGTGTKVTVL
B10: XGv-401 (protein)
chain 1: QVQLQESGPGLVKPSQTLSLTCTVSGGSISSDSYYWSWIRQPAGKGLEWIGRIYTRGGTNYNPSLKSRVTISVDTSKNQFSLKLSSVTAADTAVYYCAKGIAVAGTDDYYYYYGMDVWGQGTTVTVSS
chain 2: SYELTQPPSVSVSPGQTARITCSGDALPKQYAYWYQQKPGQAPVVVIYKDSERPSGIPERFSGSSSGTTVTLTISGVQAEDEADYYCQSADSRNTYLVFGGGTKLTVL
B11: BD57-015 (protein)
chain 1: QEQLVESGGGVVQPGRSLRLSCAASGFTFRTHAMHWVRQAPGKGLEWVAVIWNDGSNKEYADSVKGRFTISRDNSKKTLSLQMDSLRDEDTAVYYCAREGIAAPGSASDAFDIWGQGTMVTVSS
chain 2: DIQMTQSPSSLSASVGDTVTITCRTSQTISNFLNWYQQKPGKAPKVLIYAASSLQSGVPSRFSGSGSGTDFALTISSLQYEDFATYYCQQSYSPRYTFGQGTKVEIK
B12: XGv-387 (protein)
chain 1: EVQLVESGGGLIQPGGSLRLSCAASGVIVSSNYMSWVRQAPGKGLEWVSVMYSGGSTFYADSVKGRFTISRDNSKNTLYLQMNRLRAEDTAVYFCARGDGGSYLGGAFDIWGQGTMVTVSS
chain 2: DIQMTQSPSSLSASVGDRVTLTCRASQSISTYLNWYQQKPGKAPKLLIYAASSLQSGVPSRFSGSGSGTDFTLTINSLQPEDFATYYCQQSYSLPALTFGGGTKVEIK
B13: XGv-421 (protein)
chain 1: EVQLVESGGGLIQPGGSLRLSCQASGLSVNDNYMTWVRQAPGKGLQWVSVIYNGDTTYYADSVKGRFTISTDTSKNTVHLQMNSLRAADTAVYFCAREYCSGGNCYSGGGRGYGAFDIWGQGTMVTVSS
chain 2: DIQMTQSPSSVSASVGDRVTITCRASQAISSWLAWYQQKPGKAPKLLIYAASDLLGGVPSRFSGSESGTDFTLTINNLQPEDFATYYCQQSHTFPLTFGGGTKVEIK

Human monoclonal antibodies against the spike receptor-binding domain (heavy:light variable regions). IC50 against pseudoviruses bearing the spike of naturally observed variants; lower = stronger; >10 µg/ml means not reached at the top dose. No active / inactive call. The stated detection limit is 0.0005 µg/ml; values near or below 0.001 µg/ml lie at the floor of the assay. Some results are limits rather than exact numbers.

The target of one assay is SARS-CoV-2 Omicron BA.1 spike pseudovirus. As to the kind of experiment: pseudovirus neutralization IC50; higher = weaker neutralization. How it is done:
(§1)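 Single-round VSV luciferase pseudovirus mixed with antibody dilutions for 1 h and put on Huh-7 cells for about a day; IC50 from the dose curve.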
With B1, the “pseudovirus neutralization IC50” value was 0.0208 µg/mL.
The same measure, in the same setting: the result for B2 reads 1.49 µg/mL.
Turning to B3, the “pseudovirus neutralization IC50” value amounted to 0.378 µg/mL.
Same read-out and setting: the result for B4 reads above 10 µg/mL; that for B5, 0.0168 µg/mL; that for B6, 0.0112 µg/mL.
Still for that read-out and setting: the result for B7 reads above 10 µg/mL; that for B8, 0.00489 µg/mL.
The same measure, in the same setting: the result for B9 reads 0.254 µg/mL; that for B10, 0.522 µg/mL.
Regarding B11, the “pseudovirus neutralization IC50” value was found to be 0.0867 µg/mL.
Still for that read-out and setting: as for B12, the figure is 0.234 µg/mL; as for B13, above 10 µg/mL.

The target of another assay is SARS-CoV-2 Omicron BA.2 spike pseudovirus. The description is as above. How it is done: as §1
Regarding B1, the “pseudovirus neutralization IC50” value was 0.0123 µg/mL.
Regarding B2, the “pseudovirus neutralization IC50” value is above 10 µg/mL.
As for B3, the “pseudovirus neutralization IC50” value is 0.398 µg/mL.
Same read-out and setting: as for B4, the figure is above 10 µg/mL; as for B5, 0.0222 µg/mL; as for B6, 0.00895 µg/mL.
On the same count and under the same terms, as for B7, the figure is above 10 µg/mL.
On the same count and under the same terms, as for B8, the figure is 0.00769 µg/mL; as for B9, 0.0005 µg/mL.
For the molecule B10, the “pseudovirus neutralization IC50” value amounted to 1.4 µg/mL.
The same measure, in the same setting: as for B11, the figure is 0.00329 µg/mL; as for B12, 0.136 µg/mL; as for B13, above 10 µg/mL.

In a further assay the target is SARS-CoV-2 Omicron BA.2.75 spike pseudovirus. The assay is described as above. How it is done:
as §1
On to B1, for which the “pseudovirus neutralization IC50” value is 0.0141 µg/mL.
On the same count and under the same terms, the result for B2 reads above 10 µg/mL; that for B3, 0.495 µg/mL; that for B4, above 10 µg/mL.
Take B5: the “pseudovirus neutralization IC50” value was above 10 µg/mL.
On the same count and under the same terms, the result for B6 reads 0.00205 µg/mL.
Same read-out and setting: the result for B7 reads above 10 µg/mL; that for B8, 0.00643 µg/mL; that for B9, 0.465 µg/mL.
Same read-out and setting: as for B10, the figure is 1.63 µg/mL; as for B11, 0.00288 µg/mL; as for B12, 0.744 µg/mL.
B13: the “pseudovirus neutralization IC50” value was above 10 µg/mL.

For another assay, the target named is SARS-CoV-2 Omicron BA.5 spike pseudovirus. The assay is described as above. As for the experimental part: as §1
B1: the “pseudovirus neutralization IC50” value was 3.63 µg/mL.
Same read-out and setting: as for B2, the figure is above 10 µg/mL; as for B3, 0.681 µg/mL.
Same read-out and setting: the result for B4 reads above 10 µg/mL; that for B5, 0.0228 µg/mL; that for B6, 1.45 µg/mL.
Turning to B7, the “pseudovirus neutralization IC50” value was above 10 µg/mL.
On the same count and under the same terms, the result for B8 reads above 10 µg/mL; that for B9, 0.00079 µg/mL; that for B10, 0.928 µg/mL.
The same measure, in the same setting: as for B11, the figure is 0.219 µg/mL; as for B12, 5.36 µg/mL.
The same measure, in the same setting: as for B13, the figure is above 10 µg/mL.

A further assay concerns the target SARS-CoV-2 Omicron BQ.1.1 spike pseudovirus. Described as above. As for the experimental part:
as §1
For B1, the “pseudovirus neutralization IC50” value stood at 1.5 µg/mL.
The same measure, in the same setting: as for B2, the figure is above 10 µg/mL; as for B3, 1.06 µg/mL.
On the same count and under the same terms, the result for B4 reads above 10 µg/mL; that for B5, above 10 µg/mL; that for B6, 3.82 µg/mL.
Regarding B7, the “pseudovirus neutralization IC50” value is above 10 µg/mL.
Consider B8, for which the “pseudovirus neutralization IC50” value is above 10 µg/mL.
Same read-out and setting: as for B9, the figure is 0.0535 µg/mL.
The same measure, in the same setting: as for B10, the figure is 0.63 µg/mL.
Same read-out and setting: the result for B11 reads above 10 µg/mL; that for B13, above 10 µg/mL.

Another assay addresses SARS-CoV-2 Omicron XBB spike pseudovirus. The description is as above. How it is done: as §1
B1: the “pseudovirus neutralization IC50” value was found to be 3.72 µg/mL.
Consider B2, for which the “pseudovirus neutralization IC50” value was above 10 µg/mL.
Turning to B3, the “pseudovirus neutralization IC50” value worked out at 0.789 µg/mL.
On the same count and under the same terms, as for B4, the figure is above 10 µg/mL; as for B5, above 10 µg/mL; as for B6, 4.02 µg/mL.
Same read-out and setting: as for B7, the figure is above 10 µg/mL; as for B8, above 10 µg/mL.
Same read-out and setting: the result for B9 reads above 10 µg/mL.
On to B10, for which the “pseudovirus neutralization IC50” value came out at 1.31 µg/mL.
Regarding B11, the “pseudovirus neutralization IC50” value was 0.0168 µg/mL.
Consider B13, for which the “pseudovirus neutralization IC50” value is above 10 µg/mL.

The next assay has as its target SARS-CoV-2 early D614G spike pseudovirus. Described as above. As for the experimental part:
as §1
Turning to B1, the “pseudovirus neutralization IC50” value amounted to 0.00803 µg/mL.
The same measure, in the same setting: the result for B2 reads 0.566 µg/mL; that for B3, 0.394 µg/mL; that for B4, 0.86 µg/mL.
Same read-out and setting: the result for B5 reads 0.0178 µg/mL.
The same measure, in the same setting: the result for B6 reads 0.00316 µg/mL.
In the case of B7, the “pseudovirus neutralization IC50” value worked out at 0.169 µg/mL.
Same read-out and setting: the result for B8 reads 0.00457 µg/mL.
Regarding B9, the “pseudovirus neutralization IC50” value was determined as 0.001 µg/mL.
The same measure, in the same setting: as for B10, the figure is 1.03 µg/mL; as for B11, 0.00239 µg/mL.
In the case of B12, the “pseudovirus neutralization IC50” value stood at 0.0159 µg/mL.
B13: the “pseudovirus neutralization IC50” value is 0.0439 µg/mL.
